Test results published in PMC6213309 (International Journal of Molecular Sciences, 2018).
Some peptides are written in HELM: one residue between dots, names in brackets for other building blocks, links after the first $.

Assay: peptide made by a vendor
Details: whole synthesis, analytical reverse-phase HPLC

Row | Substance | final HPLC purity
1 | PEPTIDE1{K.W.R.R.W.Q.W.R.R.W.K.[am]}$$$$V2.0 | 96.94%
2 | PEPTIDE1{K.C.R.R.W.Q.W.R.M.K.K.[am]}$$$$V2.0 | 95.81%
3 | PEPTIDE1{F.P.R.R.W.Q.W.R.R.P.F.[am]}$$$$V2.0 | 97.58%
4 | FWRRWQWRRRWF-NH2 | 97.31%
5 | PEPTIDE1{K.K.R.R.W.Q.W.R.R.K.K.[am]}$$$$V2.0 | 95.21%
